# Assay results from patent US20250026796A1 (priority 2022, published 2025).
# Tested on: 2E-N antibody
# Assay: ELISA comparing affinity of 2E-N antibody to 2ED and wild-type peptides
# Details: 2ED compared to wild-type
sequence,measurement,value
MYSFVSDDTGTLIVNSVL,Binding affinity of the 2E antibody to peptide,reduces the binding affinity
